Results of unrelated studies side by side (data: NIAID ChemDB).

Common to all: enzyme or target tests; agent: HIV-1; target: Reverse transcriptase

a–b is a range or a potency band. Neighbouring rows are from separate reports. Fold resistance: result on the changed form divided by that on wild type. Inhibition is in % at the dose shown (toxicity tests: loss of growth or viability). ICn is the concentration giving n% inhibition. An empty or dashed field is not shown.

structure | dose | endpoint | method | mutations | result
Cc1cn([C@H]2C=C[C@@H](COP(=O)(O)OP(=O)(O)OP(=O)(O)O)O2)c(=O)[nH]c1=O |  | fold resistance | nucleotide incorporation / radiometric | RT-E138A | 0.8
CCN1c2ncc(CCOc3ccc(C(=O)O)c4ccccc34)cc2C(=O)N(C)c2cccnc21 |  | fold resistance | nucleotide incorporation / radiometric | RT-V106A | >10
Cc1cc(O)c2c(c1)C(=O)C=CC2=O | 50 µg/mL | inhibition | RT activity |  | 98%
COc1cc(OC)nc(N2C(=O)CSC2c2c(Cl)ncnc2Cl)n1 | 10 µg/mL | inhibition | RT activity / ELISA / absorbance |  | 33.18%
c1ccc(C2SCc3nc4ccccc4n32)cc1 |  | fold resistance |  | RT-I135T | 1
CCN1c2ncc(CCOc3cccc4c3CCCN4CC(=O)O)cc2C(=O)N(C)c2cccnc21 |  | fold resistance | nucleotide incorporation / radiometric | RT-V106A | >10
CCN1c2ncccc2C=Cc2cccnc21 | 1 µM | inhibition | nucleotide incorporation | RT-P236 | 98%
CCN1c2ncc(CCOc3ccc(/C(C)=C/C(=O)O)c4ccccc34)cc2C(=O)N(C)c2cccnc21 |  | fold resistance | nucleotide incorporation / radiometric | RT-V106A | >10
Nc1ncnc2c1ncn2CCOCP(=O)(O)OP(=O)(O)OP(=O)(O)O |  | fold resistance | nucleotide incorporation / radiometric | RT-K65R | 8.1
O=C1CSC(c2c(Br)cncc2Br)N1n1cnnc1 | 100 µg/mL | inhibition | RT activity / ELISA / absorbance |  | 45.57%
Cc1ccc2c(c1O)C(=O)C=CC2=O | 25 µg/mL | inhibition | RT activity |  | 56%
O=C1CSC(c2c(Cl)ncnc2Cl)N1c1ncccn1 | 100 µg/mL | inhibition | RT activity / ELISA / absorbance |  | 56.93%
Cc1cc(O)c2c(c1)C(=O)C(c1c(C)cc3c(c1O)C(=O)C=CC3=O)=CC2=O | 100 µg/mL | inhibition | RT activity |  | 29%
O=C1CSC(c2c(Cl)ncnc2Cl)N1n1cnnc1 | 100 µg/mL | inhibition | RT activity / ELISA / absorbance |  | 72.15%
CCN1c2ncc(CCOc3ccc(CC(N)=O)c4ccccc34)cc2C(=O)N(C)c2cccnc21 |  | fold resistance | nucleotide incorporation / radiometric | RT-V106A | 1–10
Cc1cc(C)nc(N2C(=O)CSC2c2c(Cl)ncnc2Cl)n1 | 10 µg/mL | inhibition | RT activity / ELISA / absorbance |  | 43.18%
Cc1cc(S(N)(=O)=O)ccc1NC(=O)COc1ccc(Cl)cc1C(=O)c1cc(Cl)cc(C#N)c1 |  | IC50 | fluorescence | RT-E138K | 0.0042 µM
O=C1CSC(c2c(Cl)ncnc2Cl)N1c1nc(Cl)cc(Cl)n1 | 10 µg/mL | inhibition | RT activity / ELISA / absorbance |  | 20.73%
Cc1cc(O)c2c(c1F)C(=O)C=CC2=O | 12.5 µg/mL | inhibition | RT activity |  | 49%
CCc1c(Sc2ccccn2)n(COCc2ccccc2)c(=O)[nH]c1=O | 50 µM | inhibition |  | RT-Y181C | 30%
COc1nc(C)nc(N2C(=O)CSC2c2c(Cl)ncnc2Cl)n1 | 100 µg/mL | inhibition | RT activity / ELISA / absorbance |  | 60.93%

3 of the rows above, restated:

O=C1CSC(c2c(Cl)ncnc2Cl)N1c1nc(Cl)cc(Cl)n1 ; dose: 10 µg/mL ; endpoint: inhibition ; method: RT activity / ELISA / absorbance ; result: 20.73%
O=C1CSC(c2c(Cl)ncnc2Cl)N1c1ncccn1 ; dose: 100 µg/mL ; endpoint: inhibition ; method: RT activity / ELISA / absorbance ; result: 56.93%
c1ccc(C2SCc3nc4ccccc4n32)cc1 ; endpoint: fold resistance ; mutations: RT-I135T ; result: 1